Pooled drug test results. Numbers come from NIAID ChemDB, via PubChem.

All rows: growth or infection tests; species: Mycobacterium avium intracellulare

Rows are shuffled and stem from different studies. ECn: concentration that inhibits the pathogen or its effect by n%. Blank or dashed fields: not listed here. MIC50, MIC90 and the like: level of inhibition, or share of isolates inhibited.

SMILES,strain or isolate,endpoint,value
CC1COc2c(N3CCN(C)CC3)c(F)cc3c(=O)c(C(=O)O)cn1c23,31 strains,MIC90,100 µg/mL
C=CCSc1ncnc2ccccc12,D 39/93,MIC,500 µM
CC[C@H]1OC(=O)[C@H](C)[C@@H](OC2C[C@@](C)(OC)[C@@H](O)[C@H](C)O2)[C@H](C)[C@@H](O[C@@H]2O[C@H](C)C[C@H](N(C)C)[C@H]2O)C(C)(O)C[C@@H](C)/C(=N\OCCSc2ccccc2)[C@H](C)[C@@H](O)[C@]1(C)O,20066,MIC,3.13 µg/mL
N/C(=N\N=C\c1ccccn1)c1ccccn1,,MIC,>16 µg/mL
CCCCCCCS/C(N)=N/N=C/c1ccc2ccccc2n1,CNCT D39/93,MIC,16 µM
C=C(CCC=C(C)C)[C@@H]1CC[C@@]2(C)O[C@H]2C1,ATCC 19709,MIC,20 µg/mL
COc1c(O)c2c(=O)cc(OC)c3c4c(OC)cc(=O)c5c(O)c(OC)c6c(c(c1CC(C)=C6OC(C)=O)c23)c54,,EC50,22.5 µg/mL
N/C(=N\N=C\c1nc2ccccc2o1)c1ccccn1,,MIC,>16 µg/mL
CCS/C(N)=N/N=C/c1nc2ccccc2o1,CNCTC D38/92,MIC,63 µM
CCCCCCCCCCCCCCO/N=C1\[C@H](C)CC(C)(O)[C@H](O[C@@H]2O[C@H](C)C[C@H](N(C)C)[C@H]2O)[C@@H](C)[C@H](OC2C[C@@](C)(OC)[C@@H](O)[C@H](C)O2)[C@@H](C)C(=O)O[C@H](CC)[C@@](C)(O)[C@H](O)[C@H]1C,20066,MIC,>50 µg/mL
CC1COc2c(N3CCN(C)CC3)c(F)cc3c(=O)c(C(=O)O)cn1c23,N-260,MIC90,100 µg/mL
Cc1c(F)c(N2CCNC(C)C2)cc2c1c(=O)c(C(=O)O)cn2C1CC1,,MIC50,6.25 µg/mL
CCCCCCCCOC(=O)c1cnccn1,ATCC 13950,MIC,200 µg/mL
N/C(=N\N=C\c1cc2ccccc2o1)c1cnccn1,,MIC,>16 µg/mL
CCS/C(N)=N/N=C/c1ccc2ccccc2n1.CCS/C(N)=N/N=C/c1ccc2ccccc2n1,CNCTC D38/92,MIC,32 µM
C=CCc1ccc(OC(=O)/C(C)=C/C)cc1,ATCC 19709,MBC,>20 µg/mL
CCCCCCSc1ncnc2ccccc12,D 38/92,MIC,125 µM
CO[C@H]1/C=C/O[C@@]2(C)Oc3c(C)c(O)c4c(O)c(c5c(c4c3C2=O)NC2(CCN(CC(C)C)CC2)N=5)=NC(=O)/C(C)=C\C=C\[C@H](C)[C@H](O)[C@@H](C)[C@@H](O)[C@@H](C)[C@H](OC(C)=O)[C@@H]1C,21 strains,MIC90,1 µg/mL
Cc1c(C)c(C)[c-](C)c1C.N[C@@H](Cc1ccccc1)C(=O)[O-].[Cl][Ir+2],1406T,MIC,61 µg/mL
CCCC(C)S/C(N)=N/N=C/c1ccc2ccccc2n1,CNCT D39/93,MIC,63 µM
OCNC(=S)c1cnccn1,ATCC 13950,MIC,100 µg/mL
COc1cc(NC(C)CCCN)c2nc(C(C)(C)C)cc(C)c2c1Oc1cccc(C(F)(F)F)c1,,EC50,3 µg/mL
CC[C@H]1OC(=O)[C@H](C)[C@@H](OC2C[C@@](C)(OC)[C@@H](O)[C@H](C)O2)[C@H](C)[C@@H](O[C@@H]2O[C@H](C)C[C@H](N(C)C)[C@H]2O)C(C)(O)C[C@@H](C)/C(=N\OCCCCCc2ccccc2)[C@H](C)[C@@H](O)[C@]1(C)O,20066,MIC,3.13 µg/mL
O=C(c1ccncc1)N(/N=C/c1ccc(Cl)cc1)C(=O)c1cnccn1,ATCC 13950,MIC,>16 µg/mL
CCS/C(N)=N/N=C/c1ccccc1O,CNCT D39/93,MIC,125 µM
O=C(c1ccncc1)N(/N=C/c1ccccc1Cl)C(=O)c1cnccn1,ATCC 13950,MIC,>16 µg/mL
CCS/C(N)=N/N=C/c1ccc2ccccc2n1,CNCT D39/93,MIC,>1000 µM
CCCCCCCCCCCCCCCCSc1ncnc2ccccc12,D 39/93,MIC,>1000 µM
O=C(c1ccncc1)N(/N=C/c1cccc(Oc2ccccc2)c1)C(=O)c1cnccn1,ATCC 13950,MIC,>16 µg/mL
Cc1ccc2oc(/C=N/N=C(\N)c3ccccn3)nc2c1,,MIC,>16 µg/mL
CC(=O)NC[C@H]1CN(c2ccc(N3CCN(c4ccc([N+](=O)[O-])s4)CC3)c(F)c2)C(=O)O1,356/97,MIC,0.25 µg/mL
CCCCSc1ncnc2ccccc12,D 38/92,MIC,32 µM
N/C(=N\N=C\c1nc2ccccc2o1)c1cnccn1,,MIC,>16 µg/mL
O=C(c1ccncc1)N(/N=C/c1ccc(Cl)cc1Cl)C(=O)c1cnccn1,ATCC 13950,MIC,>16 µg/mL
CC(C)CSc1ncnc2ccccc12,D 39/93,MIC,125 µM

For reference, 5 entries again:

| SMILES | strain or isolate | endpoint | value |
|---|---|---|---|
| CCS/C(N)=N/N=C/c1nc2ccccc2o1 | CNCTC D38/92 | MIC | 63 µM |
| CC(=O)NC[C@H]1CN(c2ccc(N3CCN(c4ccc([N+](=O)[O-])s4)CC3)c(F)c2)C(=O)O1 | 356/97 | MIC | 0.25 µg/mL |
| CC[C@H]1OC(=O)[C@H](C)[C@@H](OC2C[C@@](C)(OC)[C@@H](O)[C@H](C)O2)[C@H](C)[C@@H](O[C@@H]2O[C@H](C)C[C@H](N(C)C)[C@H]2O)C(C)(O)C[C@@H](C)/C(=N\OCCCCCc2ccccc2)[C@H](C)[C@@H](O)[C@]1(C)O | 20066 | MIC | 3.13 µg/mL |
| CC1COc2c(N3CCN(C)CC3)c(F)cc3c(=O)c(C(=O)O)cn1c23 | 31 strains | MIC90 | 100 µg/mL |
| C=C(CCC=C(C)C)[C@@H]1CC[C@@]2(C)O[C@H]2C1 | ATCC 19709 | MIC | 20 µg/mL |